Compound potency records, mixed from different reports. Data source: NIAID ChemDB in PubChem.

Common to all: tests in culture; species: HIV-1; cells: MT-4; measure: EC50

Blank or dashed fields: not listed here. Conditions beyond the fields shown may differ between rows. ECn: concentration that inhibits the pathogen or its effect by n%. a–b is a range or a potency band.

structure,strain,method,result
Nc1cc(O)ccc1-c1nn2c(-c3ccc(O)c(Cl)c3Cl)nnc2s1,IIIB,MTT,>19.61 µg/mL
CC(C)(C)NC(=O)[C@@H]1CCCN1C(=O)[C@@H](O)[C@H](Cc1ccccc1)NC(=O)[C@H](CC(N)=O)NC(=O)COc1ccc([N+](=O)[O-])cc1,,antigen,4.5 µg/mL
C[C@]1(n2ccc(=O)[nH]c2=O)CO[C@@H](CO)O1,,,>100 µM
Cn1cc(CN2CCn3c(nc(C(=O)NCc4ccc(F)cc4)c(O)c3=O)C2(C)C)nn1,,p24,<1 µM
Oc1ccc(-c2nnc3sc(-c4ccco4)nn23)c(Cl)c1Cl,IIIB,MTT,>27.51 µg/mL
CN1CCn2c(nc(C(=O)NCc3ccc(F)c(Cl)c3)c(O)c2=O)C1(C)C,,p24,<1 µM
CCOP(=O)(OCC)C(N[C@@H](Cc1ccccc1)[C@H](O)CN(CC(C)C)S(=O)(=O)c1ccc(OC)cc1)C(C)C,IIIB,MTT,>11.52 µg/mL
Nc1nc(NC2CC2)c2ncn([C@H]3C[C@@H](OCP(=O)(O)O)CO3)c2n1,IIIB,MTT / absorbance,>338 µM
CCc1c(C(=O)c2cc(C)cc(C)c2)n(Cc2cc(C)nc(C)c2)c(=O)[nH]c1=O,,cytopathic effect / MTT,0.0026 µg/mL
O=C1c2ccccc2N(Cc2ccccc2Cl)S(=O)(=O)N1Cc1ccccc1Cl,IIIB,cytopathic effect,≥2 µM
C#C/C(C)=C/CN1Cc2cccc3[nH]c(=O)n(c23)CC1C,IIIB,cytopathic effect / MTT,>18 µM
CC(C)c1c(C(=O)c2cc(F)cc(F)c2)n(Cc2ccccn2)c(=O)[nH]c1=O,,cytopathic effect / MTT,0.053 µg/mL
CC1Cn2c(=O)[nH]c3cccc(c32)CN1CC#N,IIIB,cytopathic effect / MTT,>508 µM
Clc1ccc(-c2nn3c(-c4cccc(Br)c4)nnc3s2)cc1Cl,IIIB,MTT,>4.12 µg/mL
O=C1c2ccccc2N(Cc2ccccc2)S(=O)(=O)N1Cc1ccccc1,IIIB,cytopathic effect,≥40 µM
Cc1cn([C@H]2C[C@H](N=[N+]=[N-])[C@@H](CO)O2)c(=O)[nH]c1=O,IIIB,MTT / absorbance,0.0075 µM
Cn1cc(C(=O)O)c(=O)c2cc(F)c(N3CC=C(c4ccccc4)CC3)c(C(F)(F)F)c21,,cytopathic effect / MTT,0.2 µM
CC(C)c1c(C(=O)c2cc(Cl)cc(Cl)c2)n(Cc2ccncc2)c(=O)[nH]c1=O,,cytopathic effect / MTT,0.003 µg/mL
CCOP(=O)(OCC)C(N[C@@H](Cc1ccccc1)[C@@H](O)CN(CC(C)C)S(=O)(=O)c1ccc(OC)cc1)C(C)C,IIIB,MTT,>13.68 µg/mL
NC1=Nn2c(nnc2-c2ccc(Cl)c(Cl)c2)SC1,IIIB,MTT,>2.7 µg/mL
CCCOC(=O)[C@H](Cc1ccccc1)NP(=O)(CO[C@H]1CO[C@@H](n2cnc3c(=O)[nH]cnc32)C1)N[C@@H](Cc1ccccc1)C(=O)OCCC,IIIB,MTT / absorbance,>95.1 µM
Cc1cc(C)cc(C(=O)c2c(C(C)C)c(=O)[nH]c(=O)n2Cc2ccc([N+](=O)[O-])cc2)c1,,cytopathic effect / MTT,0.005 µg/mL
Cc1cn([C@H]2C[C@@H](OCP(=O)(O)O)CO2)c(=O)nc1N,IIIB,MTT / absorbance,>410 µM
CC(C)(CNC(=O)C(C)(C)C)NC(=O)[C@@H]1CCCN1C(=O)[C@@H](O)[C@H](Cc1ccccc1)NC(=O)[C@H](CC(N)=O)NC(=O)OCc1ccccc1,,antigen,>100 µg/mL
O=C1c2ccccc2N(Cc2ccccc2Cl)S(=O)(=O)N1Cc1ccccc1,IIIB,cytopathic effect,3.4–7.6 µM
Cn1cc(NC(=O)Nc2cc(C(=O)Nc3cc(C(=O)Nc4ccc(S(=O)(=O)O)c5cc(S(=O)(=O)O)ccc45)n(C)c3)n(C)c2)cc1C(=O)Nc1cc(C(=O)Nc2ccc(S(=O)(=O)O)c3cc(S(=O)(=O)O)ccc23)n(C)c1,6R(AZT),cytopathic effect / XTT,7.2 µM
Cc1cc(F)cc(C(=O)c2c(C(C)C)c(=O)[nH]c(=O)n2Cc2ccnc(C)c2)c1,,cytopathic effect / MTT,0.0024 µg/mL
COC(=O)C(=O)N1CCC[C@H]1C(=O)N[C@@H](Cc1ccccc1)C(=O)Nc1cccc(OCC(=O)N[C@@H](CC(N)=O)C(=O)N[C@@H](Cc2ccccc2)[C@H](O)C(=O)N2CCC[C@H]2C(=O)NC(C)(C)C)c1,,antigen,100 µg/mL
CN1CCn2c(nc(C(=O)NCc3ccc(F)cc3)c(O)c2=O)C(N(Cc2ccccc2)C(=O)C(=O)N(C)C)C1,,p24,<1 µM
Cc1cc(C)cc(C(=O)c2c(C(C)C)c(=O)[nH]c(=O)n2Cc2ccnc(C)c2)c1,,cytopathic effect / MTT,0.0098 µg/mL
CCOP(=O)(OCC)C(N[C@@H](Cc1ccccc1)[C@H](O)CN(CC(C)C)S(=O)(=O)c1ccc(OC)cc1)c1ccc2c(c1)OCO2,IIIB,MTT,>13.2 µg/mL
C#CCOCN1c2ccccc2C(=O)N(Cc2ccccc2)S1(=O)=O,IIIB,cytopathic effect,>10 µM
CC(C)(C)NC(=O)[C@@H]1CCCN1C(=O)[C@@H](O)[C@H](Cc1ccccc1)NC(=O)[C@H](CC(N)=O)NC(=O)COc1cccc([N+](=O)[O-])c1,,antigen,6–10 µg/mL
Nc1cc(O)ccc1-c1n[nH]c(=S)n1N,IIIB,MTT,>12 µg/mL
CCOP(=O)(N[C@@H](Cc1ccccc1)[C@H](O)CN(CC(C)C)S(=O)(=O)c1ccc(OC)cc1)OCC,ROD,MTT,>64.5 µg/mL
CS(=O)(=O)N1CCc2nc(C(=O)NCc3ccc(F)cc3)c(O)c(=O)n2CC1,,p24,<50 µM
Cc1cn([C@]2(C)CO[C@@H](CO)O2)c(=O)[nH]c1=O,,,>100 µM
O=C(O)c1cn(-c2ccc(Cn3cncn3)cc2)c2c(OC(F)F)c(N3CC=C(c4ccccc4)CC3)c(F)cc2c1=O,,cytopathic effect / MTT,0.043 µM
CC(C)(C)NC(=O)[C@@H]1CCCN1C(=O)[C@@H](O)[C@H](Cc1ccccc1)NC(=O)[C@H](CC(N)=O)NC(=O)COc1ccccc1[N+](=O)[O-],,antigen,6 µg/mL
CCN1Cc2cccc3[nH]c(=O)n(c23)CC1C,IIIB,cytopathic effect / MTT,>592 µM
CCOP(=O)(OCC)C(N[C@@H](Cc1ccccc1)[C@H](O)CN(CC(C)C)S(=O)(=O)c1ccc(OC)cc1)c1ccc(C)cc1,IIIB,MTT,>2.47 µg/mL
Clc1ccc(-c2nnc3sc(-c4ccco4)nn23)cc1Cl,IIIB,MTT,>27.51 µg/mL
CCc1c(C(=O)c2cc(C(F)(F)F)cc(C(F)(F)F)c2)n(Cc2ccncc2)c(=O)[nH]c1=O,,cytopathic effect / MTT,1.935 µg/mL
Cc1cc(C)c(Oc2ccnc(NC3CCN(C(=O)c4cc5cc(NS(C)(=O)=O)ccc5[nH]4)CC3)n2)c(C)c1,IIIB,MTT,0.0086 µM
O=C1Cn2c(nc(C(=O)NCc3ccc(F)cc3)c(O)c2=O)CN1,,p24,<50 µM
C[C@]1(n2ccc(N)nc2=O)CO[C@@H](CO)O1,,,>100 µM

4 of the rows above, restated:

structure	strain	method	result
CC(C)(CNC(=O)C(C)(C)C)NC(=O)[C@@H]1CCCN1C(=O)[C@@H](O)[C@H](Cc1ccccc1)NC(=O)[C@H](CC(N)=O)NC(=O)OCc1ccccc1		antigen	>100 µg/mL
Cc1cc(F)cc(C(=O)c2c(C(C)C)c(=O)[nH]c(=O)n2Cc2ccnc(C)c2)c1		cytopathic effect / MTT	0.0024 µg/mL
CS(=O)(=O)N1CCc2nc(C(=O)NCc3ccc(F)cc3)c(O)c(=O)n2CC1		p24	<50 µM
CCCOC(=O)[C@H](Cc1ccccc1)NP(=O)(CO[C@H]1CO[C@@H](n2cnc3c(=O)[nH]cnc32)C1)N[C@@H](Cc1ccccc1)C(=O)OCCC	IIIB	MTT / absorbance	>95.1 µM